The text below walks through data of US20010008763A1, “Method for high throughput thermodynamic screening of ligands” (priority 1999, published 2001).

The target in experiment [1] is T1, HIV-1 protease (Human immunodeficiency virus type 1 group M subtype B, UniProt P04585).
T1 construct: the enzymatic activity of the HIV- 1 protease was measured
As to the kind of experiment: Binding enthalpy by calorimetric titrations. Conditions: calorimetric titration.

The target in experiment [2] is T1, HIV-1 protease. In words: HIV-1 protease enzymatic activity inhibition at two temperatures. Type of experiment: biochemical. The following applies: for Ki: inhibition constant, chromogenic substrate, [S]<<Km.

With `CC(C)C[C@H](NC(=O)[C@H](CC(=O)O)NC(=O)[C@@H](N)CCC(=O)O)C(=O)O` [Glu—Asp—Leu], the “binding enthalpy measured directly by calorimetric titrations” value at HIV-1 protease [1] was -3.6 kcal/mol. Further, the “binding enthalpy calculated from the data in FIG. 3 using equation 6b” value on HIV-1 protease [2] (from inhibition constants at 15° C. and 35° C.) is -5 kcal/mol. Moreover, the inhibition constant Ki at HIV-1 protease [2] (15° C.) was 9 µM; on HIV-1 protease [2] (35° C.), 16 µM.

What is called Ki is the dissociation constant of the complex between target and ligand, obtained from inhibition or displacement. Higher therefore signals a looser hold on the target.
